{
  "source": "paper PMC4728504",
  "about": "“Determination of FVIIa-sTF Inhibitors in Toxic Microcystis Cyanobacteria by LC-MS Technique” (Marine Drugs, 2015)",
  "origin": "cited, not measured here",
  "molecular_target": "thrombin (Homo sapiens, UniProt P00734)",
  "conditions": "cited from earlier work",
  "data": [
    {"substance": "oscillarin", "values": [
      {"measurement": "thrombin inhibition, in words", "value": "fVIIa and thrombin inhibitors"}
    ]}
  ]
}
